PubChem BioAssay AID1259414 | Drosophila RNAi Screening Center – 2018
Test: 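Host factors increasing or decreasing Wolbachia levels in cultured fly cells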 (primary screen). Cell system: Drosophila JW18 cells infected with Wolbachia. Reagent: long dsRNA against Drosophila genes, 0.25 µg dsRNA per well of a 384-well plate. Time to read-out: 5 days. Conditions: cells persistently infected with Wolbachia before knock-down; no added drug. Measured: 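Imaged fluorescence in situ signal for Wolbachia 23S rRNA per DAPI-counted host cell, given as a robust z-score within each plate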. Reading the numbers: Wolbachia per cell robust z: higher = more Wolbachia per host cell than the plate typical. Call rule: 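Hit when robust z is 1.5 or more, or -1.5 or less, in at least two of three replicates; excludes dsRNAs with several or no targets, genes not expressed in JW18 and well A1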.
The screen tested about 24,000 reagents; this is a random part of those that have a named target and a result. Over the whole deposit, about 1,210 (5%) got an active call. 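Inactive calls also include excluded dsRNAs with several or no targets, genes unexpressed in JW18, and well A1, regardless of score.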 Reagents against one gene are numbered here. A plus sign joins genes that one reagent is predicted to hit. Reagent sequences are not shown.

gene	reagent no.	Wolbachia per cell robust z, rep 1	Wolbachia per cell robust z, rep 2	Wolbachia per cell robust z, rep 3	outcome
CG18171	1	0.325	-0.878	-3.29	inactive
CG18171	2	-2.94	-0.014	-0.898	inactive
Lcp65APsi	1	-0.342	-6.72	-0.0322	inactive
Lcp65APsi	2	0.268	0.555	1.11	inactive
Orp8	1	-1.98	0.0403	0.054	inactive
Orp8	2	-8.88	-0.866	0.14	inactive
Orp8	3	-0.444	-0.114	0.305	inactive
Rpt6R	1	-0.112	0.879	-0.389	inactive
ced-6	1	-1.25	-0.723	-0.496	inactive
ced-6	2	0.829	0.784	-3.79	inactive
Gr85a	1	0.958	0.191	-1.23	inactive
fd3F + CR42499	1	0.667	0.564	-1.17	inactive
fd3F + CR42499	2	0.089	-0.997	-0.871	inactive
fd3F + CR42499	3	0.757	-0.472	0.83	inactive
CG15549	1	-0.619	-0.775	-5.58	inactive
Afg3l2	1	0.45	-0.574	-1.4	inactive
Afg3l2	2	-0.645	0.221	-0.76	inactive
CG16717	1	-3.34	1.06	1.08	inactive
CG16717	2	-0.264	1.12	-5.65	inactive
RhoU	1	0.537	-0.11	0.0154	inactive
RhoU	2	0.0303	-0.504	-0.111	inactive
RhoU	3	0.623	1.24	0.321	inactive
RhoU	4	-0.332	0.884	0.319	inactive
RhoU	5	-0.688	0.33	-2.19	inactive
RhoU	6	0.567	0.739	0.318	inactive
CG18814	1	-0.64	0.725	-0.322	inactive
PolG1	1	0.022	0.543	0.906	inactive
PolG1	2	0.404	0.991	0.964	inactive
PolG1	3	0.0645	-0.0958	0.384	inactive
Npc2h	1	0.76	0.273	0.138	inactive
Tektin-C	1	0.889	-0.548	2.69	inactive
Tektin-C	2	1.21	0.408	0.0688	inactive
CG15803	1	-0.0149	-5.19	0.453	inactive
CG12655	1	2.48	2.65	1.19	inactive
msopa	1	0.943	0.486	0.891	inactive
Ir11a	1	0.431	-0.0934	0.295	inactive
CG31381 + CG11089	1	-1.52	-0.337	-0.573	inactive
Polr2J	1	-9.73	0.0781	0.565	inactive
Polr2J	2	-3.99	1.47	1.96	inactive
RpL22-like	1	-1.21	0.3	0.429	inactive
Kots	1	0.329	0.638	-1.89	inactive
CG4822	1	0.638	0.697	-0.587	inactive
Sr-CIII	1	-0.0536	-0.753	0.303	inactive
Sr-CIII	2	0.00475	-1.47	-0.0913	inactive
Regnase-1	1	1.36	1.8	-0.081	inactive
Usp8	1	-0.428	-0.251	-0.521	inactive
CG11374	1	0.576	-1.58	-0.121	inactive
CG14221	1	0.751	0.973	0.43	inactive
CG11666	1	-0.105	0.458	-0.19	inactive
CG11180	1	0.923	1.17	-1.2	inactive
CG11180	2	1.28	0.284	0.891	inactive
CG42284	1	-3.1	0.343	0.981	inactive
CG42284	2	0.825	0.749	-0.965	inactive
CG14102	1	-4.37	-1.06	0.48	inactive
mlt	1	0.502	0.279	0.163	inactive
mlt	2	-1.1	0.751	-0.678	inactive
CG33965	1	-0.195	-1.49	0.686	inactive
CG41561	1	0.109	-0.0493	0.305	inactive
Ype	1	-3.02	-8.12	-0.781	active
CG13581	1	-0.782	-0.502	0.14	inactive
Prosbeta5R2	1	-0.357	-0.0217	-4.86	inactive
Prosbeta5R2	2	-0.783	-7.17	-0.784	inactive
CG30325	1	-0.555	-0.0574	1.06	inactive
Rpn8	1	1.07	2.56	1.24	inactive
Rpn8	2	3.35	2.1	2.81	active
Alk	1	-0.673	-0.55	0.303	inactive
Alk	2	-1.64	-0.601	-3.47	active
CG3337	1	0.919	0.306	-0.204	inactive

Entries listed so far marked active (3):
gene	reagent no.	Wolbachia per cell robust z, rep 1	Wolbachia per cell robust z, rep 2	Wolbachia per cell robust z, rep 3	outcome
Ype	1	-3.02	-8.12	-0.781	active
Rpn8	2	3.35	2.1	2.81	active
Alk	2	-1.64	-0.601	-3.47	active
